The subject of this experiment is P. aeruginosa PA14 siderophore null strain (ΔpvdAΔpchE). Put plainly: Flow cell biofilm development, siderophore null strain, 1% TSB. The settings on record: 10 μM PCA or PYO; for Total biomass: 22° C.
Setting [1] is: Day 2, additives to 1% TSB: 1.0 μM Fe(OH)3(s).
Where [2] appears, read: Day 4, additives to 1% TSB: 1.0 μM Fe(OH)3(s).
Where [3] appears, read: Day 6, additives to 1% TSB: 1.0 μM Fe(OH)3(s).

Regarding `O=C(O)c1cccc2nc3ccccc3nc12` [PCA, Phenazine-1-carboxylic acid], the Max. biofilm thickness (Day 2, 1.0 μM Fe(OH)3(s)) was 32 μm; the Max. biofilm thickness (Day 4, 1.0 μM Fe(OH)3(s)) turned out to be 34 μm; the Max. biofilm thickness (Day 6, 1.0 μM Fe(OH)3(s)) is recorded as 66 μm. Further, the Substratum coverage is, setting by setting: under setting [1], 0.6 ± 0.2%; (Day 4, 1.0 μM Fe(OH)3(s)) 2.9 ± 1.4%; (Day 6, 1.0 μM Fe(OH)3(s)) 3.3 ± 2.1%. Also, the Total biomass is 0.05 ± 0.01 μm^2/μm^2 under setting [1], 0.19 ± 0.00 μm^2/μm^2 under setting [2] and 0.21 ± 0.09 μm^2/μm^2 under setting [3].

Turning to `Cn1c2cccc(=O)c-2nc2ccccc21` [PYO, Pyocyanin], the Max. biofilm thickness was found to be 34 μm (Day 2, 1.0 μM Fe(OH)3(s)); 42 μm (Day 4, 1.0 μM Fe(OH)3(s)); 94 μm (Day 6, 1.0 μM Fe(OH)3(s)). The Substratum coverage runs as follows: under setting [1], 0.8 ± 0.3%; (Day 4, 1.0 μM Fe(OH)3(s)) 9.9 ± 2.4%; (Day 6, 1.0 μM Fe(OH)3(s)) 44.3 ± 5.1%. In addition, the Total biomass reads like this: under setting [1], 0.09 ± 0.03 μm^2/μm^2; under setting [2], 0.83 ± 0.22 μm^2/μm^2; under setting [3], 9.54 ± 0.18 μm^2/μm^2.

The values above are taken from US11820973B2, “Methods and system for interfering with viability of bacteria and related compounds and compositions” (CALIFORNIA INSTITUTE OF TECHNOLOGY, priority 2011, dated 2023).
